Data on 1 molecule can be found in patent US20190150137A1.

The test has as its target GST-Fg g^1-17D16A (GST fusion of the Fg γ 395-411 sequence with D16A) (human). Briefly: solid-phase assay, immobilised GST fusion, anti-His detection.

B1: ClfA229-545 (recombinant His-tagged N2N3 segment of Staphylococcus aureus clumping factor A) (protein)
chain: GTDITNQLTNVTVGIDSGTTVYPHQAGYVKLNYGFSVPNSAVKGDTFKITVPKELNLNGVTSTAKVPPIMAGDQVLANGVIDSDGNVIYTFTDYVNTKDDVKATLTMPAYIDPENVKKTGNVTLATGIGSTTANKTVLVDYEKYGKFYNLSIKGTIDQIDKTNNTYRQTIYVNPSGDNVIAPVLTGNLKPNTDSNALIDQQNTSIKVYKVDNAADLSESYFVNPENFEDVTNSVNITFPNPNQYKVEFNTPDDQITTPYIVVVNGHIDPNSKGDLALRSTLYGYNSNIIWRSMSWDNEVAFNNGSGSGDGIDKPVVP
For orientation: Kd means a measure of binding affinity in units of concentration. The low end stands for tighter binding, the high end for weaker binding. Molecule B1 had a Kd of 35 nM.
